Activity calls are given as the source filed them. No cut-off for these calls is given here.
What was measured:
[1] = molecular target: T1, Alkaline phosphatase, tissue-nonspecific isozyme (Rattus norvegicus) (UniProt P08289); assay: Inhibitory activity against Escherichia coli Alkaline Phosphatase; no inhibition
T1 sequence (whole entry): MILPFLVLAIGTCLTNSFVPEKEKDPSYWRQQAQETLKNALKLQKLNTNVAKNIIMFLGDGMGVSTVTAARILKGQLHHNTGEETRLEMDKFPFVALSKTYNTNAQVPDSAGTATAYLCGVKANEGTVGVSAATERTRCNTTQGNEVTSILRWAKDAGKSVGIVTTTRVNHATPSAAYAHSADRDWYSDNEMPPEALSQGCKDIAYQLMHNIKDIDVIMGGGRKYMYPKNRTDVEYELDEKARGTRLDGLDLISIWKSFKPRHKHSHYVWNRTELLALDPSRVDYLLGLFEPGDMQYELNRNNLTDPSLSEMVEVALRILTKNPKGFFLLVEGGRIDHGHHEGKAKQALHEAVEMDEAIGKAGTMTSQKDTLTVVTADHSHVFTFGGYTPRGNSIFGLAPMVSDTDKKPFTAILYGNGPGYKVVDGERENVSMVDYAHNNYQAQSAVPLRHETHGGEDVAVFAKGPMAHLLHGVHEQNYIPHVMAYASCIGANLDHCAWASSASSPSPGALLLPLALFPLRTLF

[2] = molecular target: T2, Protein tyrosine phosphatase receptor type C-associated protein (Homo sapiens) (UniProt Q14761); assay: Inhibitory activity against Tyrosine phosphatase from Yersinia (Yop protein); no inhibition
T2 sequence (whole entry): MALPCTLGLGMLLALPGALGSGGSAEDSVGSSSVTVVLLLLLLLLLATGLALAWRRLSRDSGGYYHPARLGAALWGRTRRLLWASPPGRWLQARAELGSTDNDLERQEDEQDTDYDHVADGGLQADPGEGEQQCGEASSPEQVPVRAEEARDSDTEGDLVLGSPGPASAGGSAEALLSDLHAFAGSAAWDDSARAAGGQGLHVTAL

Compound	NI [1]	NI [2]
O=C(O)CCCCCP(=O)(O)O	inactive	
O=P(O)(O)Cc1ccccc1	inactive	inactive
COC(=O)CCCCCP(O)(O)=S	inactive	inactive
O=C(O)c1cccc2ccc(CP(=O)(O)O)cc12		inactive
O=C(O)CCCCCP(O)(O)=S	inactive	
O=C(O)c1cccc2ccc(CP(O)(O)=S)cc12	inactive	

Source: ChEMBL document CHEMBL1144877, “A comparison of phosphonothioic acids with phosphonic acids as phosphatase inhibitors” (2003)
